Data on 1 compound can be found in US7494988B2, “Inhibitors of serine proteases, particularly hepatitis C virus NS3 protease” (Vertex Pharmaceuticals Incorporated, priority 2000, dated 2009).

Amino acid sequences for entries named in this document (tags omitted). Residues count along the entry.
UniProt P27958, 1027-1657 limits assumed: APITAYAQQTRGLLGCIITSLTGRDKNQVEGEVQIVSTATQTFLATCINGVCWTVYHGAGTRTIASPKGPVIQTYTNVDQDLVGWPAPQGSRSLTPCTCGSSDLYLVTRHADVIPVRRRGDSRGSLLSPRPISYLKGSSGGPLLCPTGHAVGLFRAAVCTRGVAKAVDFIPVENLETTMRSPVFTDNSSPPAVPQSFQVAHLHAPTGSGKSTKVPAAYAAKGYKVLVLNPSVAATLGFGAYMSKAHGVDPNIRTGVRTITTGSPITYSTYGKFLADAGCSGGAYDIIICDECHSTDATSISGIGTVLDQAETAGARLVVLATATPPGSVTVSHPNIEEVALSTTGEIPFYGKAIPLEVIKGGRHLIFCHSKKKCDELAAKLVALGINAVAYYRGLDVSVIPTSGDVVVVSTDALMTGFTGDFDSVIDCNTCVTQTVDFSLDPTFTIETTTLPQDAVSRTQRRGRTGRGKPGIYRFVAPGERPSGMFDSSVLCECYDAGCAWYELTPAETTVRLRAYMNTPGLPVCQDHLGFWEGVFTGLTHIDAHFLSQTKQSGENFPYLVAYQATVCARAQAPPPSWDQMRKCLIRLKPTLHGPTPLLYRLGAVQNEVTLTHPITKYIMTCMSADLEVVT

Each structure is given as a SMILES string.

The target of the experiment is HCV NS3 serine protease (Hepatitis C virus genotype 1a, UniProt P27958). The experiment can be described thus: Inhibition of HCV NS3 serine protease, spectrophotometric assay (5A-pNA cleavage). The settings on record: EDVVAbuC-p-nitroanilide (5A-pNA) substrate, 30° C., pNA release at 405 nm. Here is the method: Insofar as compounds of formula (I) are able to inhibit NS3 serine protease, they are of evident clinical utility for the treatment of viral diseases, including HCV. The compounds of this invention are tested for their ability to inhibit HCV in the following spectrophotometric assay.
The spectrophotometric assays were run in a 96-well microtiter plate at 30° C., using a SpectraMax 250 reader (Molecular Devices, Sunnyvale, Calif.) with kinetic capability. Cleavage of EDVVAbuC-p-nitroanilide (5A-pNA) substrate was performed with or without NS4A in the same buffer used for HPLC assays at 30° C., and pNA release was monitored at 405 nm. […]
Kinetic constants for the rapid equilibrium ordered bisubstrate reaction were determined from rate vs. [4A], [EDVV AbuC-pNA] data by non-linear least squares fitting to equation 1 [J. F. Morrison, Biochim. […] Kii and Kis values for peptidyl inhibitors were determined from rate vs. [inhibitor], [substrate] data and fitting to the equation for mixed inhibition: rate=Vmax[S]/{Km(1+[I]/Kis)+[S](1+[I]/Kii)} The commercial program KinetAsyst (StateCollege, Pa.) was used for both procedures. Ki values were calculated from rate vs. [inhibitor] plots by a nonlinear least squares fit of the data to the equation of Morrison for tight binding competitive inhibition [J. F. Morrison, Biochim. […]

As usually defined, the Ki is a dissociation constant, usually derived from enzyme kinetics or from competition with a known ligand. Low readings indicate tighter binding, high ones weaker binding. For the compound `CCC[C@H](NC(=O)C1C[C@@H](OC(=O)N2CCc3ccccc3C2)CN1C(=O)[C@@H](NC(=O)[C@@H](NC(=O)c1cnccn1)C(C)C)C(C)C)C(=O)C(=O)N1CC1C(=O)OC` (stereo partly shown), the Ki was less than 1000 nM.
